From patent publication US20140120577A1, “Metalloporphyrin Inducible Promoter” (CHR HANSEN A/S, priority 2011, published 2014)

Test system: Lactococcus lactis MG1363
Test: Final OD600 of L. lactis cultures after 1 hour of inducer treatment
Assay type: cell-based
Conditions: BHI-Tris-glucose

Row | SMILES | final OD600 (aerated, 1 μM) | final OD600 (aerated, 10 μM) | final OD600 (non-aerated, 1 μM) | final OD600 (non-aerated, 10 μM)
1 | C=CC1=C(C)c2cc3[n-]c(cc4[n-]c(cc5nc(cc1n2)C(C)=C5C=C)c(C)c4CCC(=O)O)c(CCC(=O)O)c3C.[Cl-].[Fe+3] [hemin] | 0.7 | 0.7 | 1 | 0.6
2 | C=CC1=C(C)C2=[N+]3C1=Cc1c(C)c(C=C)c4[n]1[Ga-]31[n]3c(c(C)c(CCC(=O)O)c3=CC3=[N+]1C(=C4)C(C)=C3CCC(=O)O)=C2 (centres unmarked) [Ga-PPIX, gallium-protoporphyrin IX] | 0.7 | 0.7 | 1 | 1
